## Screening data, single-dose tests

A: 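Phenotypic screen: M. tuberculosis growth, cholesterol and DPPC medium, 4 days; the read-out is not stated. Concentration: 500 µM. The record gives no direction; compounds that gave an IC50 in retests scored well above the rest, so higher reads as more growth inhibition. Of about 18,000 compounds tested this way, about 900 (5%) reached 50% or more in at least one test.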
B: 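Whole-cell growth test on Mycobacterium tuberculosis, read after 3 days in glucose-containing 7H9 medium; the read-out is not stated. Tested at 500 µM. The record gives no direction; compounds that gave an IC50 in retests scored well above the rest, so higher reads as more growth inhibition. About 18,000 compounds were tested under these conditions; 7.9% (about 1,400) showed 50% or more at least once.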

Results are given as percent effect. The record does not define 0% and 100%; most values in the screen are far below 50% and negative numbers occur (in some assays of this library far below -100). The entries come from a sample that favours strong results.

* c1cncc(CN2CCN(Cc3cccnc3)CC2)c1 : B: 6.116%
* CS(=O)(=O)c1cccc(OCCN2CCCSCC2)c1 : B: 26.65%
* O=C(CSc1cnn[nH]1)Nc1ccc(Cl)cn1 : A: 87.14%; B: 64.78%
* CCn1nc(C)cc1C(=O)Nc1ccnc(N(C)C)n1 : A: 58.68%; B: 56.85%
* CNC(=O)CCC(C)(C)NC(=O)c1cnc(C)c(C)c1 : B: -4.996%
* O=C(COC(=O)c1ccccn1)Nc1ccccc1 : A: 95.64%; B: 65.34%
* CNC(C)(C)CNC(=O)Nc1cc(OC)ccc1OC : B: 12.67%
* CCN(CC)CCNC1=NS(=O)(=O)c2ccccc21 : B: 10.47%
* CSc1cccc(CN(C)C(=O)CNC2CC2)c1 : A: 47.63%; B: 77.28%
* CCSCCOc1ccc(CO)nc1 : B: 55.65%
* NC1(CO)CCCc2ccccc21 (configuration not stated) : B: -0.6293%
* CCCn1cc(NC(=O)CS(=O)(=O)CCC)cn1 : B: 0.000860%
* CCCc1ncncc1C(=O)NCc1cnc(C)cn1 : B: 0.5911%
* CC[C@@H](O)CNC(C)c1ccncc1 (some centres not stated) : B: 0.7063%
* O=C(NCCc1cccs1)C1CCNCC1 : B: 44.94%
* COC(=O)c1cc(C#N)ccc1F : A: -9.915%
* COc1cc(OC)cc(C2(F)CCNCC2)c1 : B: 54.53%
* NC(=O)C1CCN(CC(=O)NCC(F)(F)F)CC1 : A: 0.1968%
* O=C1CC2(CCc3ccccc32)CN1 (configuration not stated) : B: 47.07%
* CC(C)S(=O)(=O)CCCn1nnc(-c2ccsc2)n1 : A: 62.4%; B: 69.45%
* O=C1CN(CC(=O)N2CCCCCC2)CCN1 : B: -11.39%
* CC(=O)c1ccc(OCCN(C)C)cc1 : A: 2.37%; B: 3.088%
* CCN1C[C@H](NC(=O)c2snnc2C(C)C)[C@@H](OC)C1 : B: -0.6144%
* CC1(NS(=O)(=O)c2ccc(Cl)cc2F)CCS(=O)(=O)C1 (configuration not stated) : B: 16.81%
* Nc1n[nH]c(SCc2cccnc2)n1 : A: -3.995%
* CCC(CNC(=O)c1cnccn1)N1CCCC1 (configuration not stated) : B: 7.733%
* NCc1nc(-c2ccc(Cl)cc2)c[nH]1 : B: 72.19%
* CCCn1nc(C(=O)NCc2csc(Br)c2)ccc1=O : A: 89.53%; B: 81.3%
* Cc1noc([C@@H]2CN(C3CCCC3)C[C@H]2CO)n1 : B: -13.4%
* CN(C1(C#N)CCC1)S(=O)(=O)c1cccs1 : B: 60.85%
* CCOC(=O)N1CCN(C(=O)Cc2cccs2)CC1 : B: 69.47%
* Cc1nsc(NC2CCN(C)C2=O)n1 (configuration not stated) : B: -6.222%
* Cc1nc(CN2CCCSCC2)oc1C : B: 26.83%
* Cn1c(SCCCO)nnc1-c1ccccc1F : A: 53.89%
* N#CCCN1CCN(Cc2ccc(C#N)cc2)CC1 : B: 20.02%
* CC(=O)c1c(C)[nH]c(C(=O)OCC(=O)N(C)C)c1C : B: 76.27%
* CCc1nc(C2(N)CCCC2)no1 : A: 8.345%
* c1c[nH]c(CN2CCN(C3CCOCC3)CC2)n1 : A: 5.599%
* O=C1c2ccc(F)cc2C(=O)N1c1ccccc1F : A: -3.658%
* O=C(Nc1ccccn1)C1CCS(=O)(=O)C1 (configuration not stated) : A: 1.734%

Source: ChEMBL document CHEMBL3988442, “University of Dundee, Small-Polar-MMV Screening Library” (2021).